A mixed list of measured activities; the numbers were collected in NIAID ChemDB.

Common to all: tests in culture; organism: HIV-1; cell line: CEM; read-out: EC50

ECn: concentration that inhibits the pathogen or its effect by n%.

{"structure": "Nc1ccn([C@H]2CC[C@@H](CO)O2)c(=O)n1", "strain": "IIIB", "read by": "syncytia", "value": "0.04 µg/mL"}
{"structure": "Cc1c(N)nc(N)nc1OCCOCP(=O)(O)O", "strain": "Clinical isolate HA20.17", "mutations": "RT-A62V V75I F77L Q151M M184V", "read by": "syncytia", "value": "0.18 µg/mL"}
{"structure": "CNc1ncnc2c1ncn2[C@@H]1O[C@H](CO[Si](C)(C)C(C)(C)C)C2(OS(=O)(=O)C=C2N)[C@H]1O[Si](C)(C)C(C)(C)C", "strain": "IIIB", "read by": "syncytia", "value": "0.16 µg/mL"}
{"structure": "Cc1cc(SC2=C(O)C[C@@](CCc3ccc(O)cc3)(C(C)C)OC2=O)c(C(C)(C)C)cc1CO", "strain": "IIIB", "read by": "cytopathic effect / MTT", "value": "0.46 µM"}
{"structure": "Nc1ncnc2c1ncn2CCOCP(=O)(O)O", "read by": "p24", "value": "3 µg/mL"}
{"structure": "COC(=O)c1cc(C(O)(c2ccc(O)c(C(=O)OC)c2)c2ccc(O)c(C(=O)OC)c2)ccc1O", "read by": "cytopathic effect", "value": ">160 µM"}
{"structure": "CCOP(=O)(C[C@@H]1C[C@H](n2cc(C)c(=O)[nH]c2=O)ON1C)OCC", "read by": "GFP", "value": ">1000 µM"}
{"structure": "Cc1cccc2c1OP(=O)(OC[C@@H]1C=C[C@H](n3cnc4c(NC5CC5)nc(N)nc43)C1)OC2", "strain": "IIIB", "read by": "syncytia", "value": "0.7 µM"}
{"structure": "CCOCn1c(Cc2ccccc2)c(C(C)C)c(=O)[nH]c1=O", "strain": "IIIB", "read by": "syncytia", "value": "0.01 µM"}
{"structure": "CC(C)(C)C(=O)OCOP(=O)(COCCn1cnc2c(N)ncnc21)OCOC(=O)C(C)(C)C", "read by": "cytopathic effect / MTT", "value": "0.18 µM"}
{"structure": "Cc1cn([C@@H]2O[C@H](CO[Si](C)(C)C(C)(C)C)C3(OS(=O)(=O)C=C3N)[C@H]2O[Si](C)(C)C(C)(C)C)c(=O)n(C)c1=O", "strain": "IIIB", "read by": "syncytia", "value": "0.07 µM"}
{"structure": "CC(C)(C)NC(=O)[C@@H]1[C@@H](Cl)CCN1C(=O)[C@@H](O)[C@H](Cc1ccccc1)NC(=O)[C@H](CC(N)=O)NC(=O)OCc1ccccc1", "strain": "IIIB", "read by": "p24", "value": "<1.5 µM"}
{"structure": "Cn1cnc2c(ncn2[C@@H]2O[C@H](CO[Si](C)(C)C(C)(C)C)C3(OS(=O)(=O)C=C3N)[C@H]2O[Si](C)(C)C(C)(C)C)c1=O", "strain": "IIIB", "read by": "syncytia", "value": "0.06 µg/mL"}
{"structure": "Cc1occc1C(=S)Nc1ccc(Cl)c(/C=N/OC(C)(C)C)c1", "strain": "IIIB", "read by": "syncytia", "value": "0.013 µg/mL"}
{"structure": "CN[C@@H]1[C@H](O[C@@H]2OC[C@@H](O)[C@H](O)[C@H]2O)[C@@H](O)[C@H](O[C@H]2c3cc(C)c(C(=O)N[C@H](C)C(=O)O)c(O)c3-c3c(cc4c(c3O)C(=O)c3cc(OC)cc(O)c3C4=O)[C@@H]2O)O[C@@H]1C", "read by": "syncytia", "value": "2.8 µg/mL"}
{"structure": "Cc1cn([C@H]2C[C@H](OC=O)[C@@H](CO)O2)c(=O)[nH]c1=O", "read by": "cytopathic effect", "value": ">20 µM"}
{"structure": "Cc1cn([C@@H]2O[C@H](CO[Si](C)(C)C(C)(C)C)C3(OS(=O)(=O)C=C3N)[C@H]2O[Si](C)(C)C(C)(C)C)c(=O)n(C)c1=O", "strain": "IIIB", "mutations": "RT-V106N", "read by": "cytopathic effect / XTT", "value": "3.5 µM"}
{"structure": "C=CCO", "read by": "syncytia", "value": "10 µM"}
{"structure": "CC(C)(C)[Si](C)(C)OC[C@H]1O[C@@H](n2cnc3c(N)ncnc32)[C@H](O[Si](C)(C)C(C)(C)C)C12OS(=O)(=O)C=C2N", "strain": "IIIB", "read by": "syncytia", "value": "0.05 µg/mL"}
{"structure": "Cc1cc(SC2=C(O)CC(CCc3ccc(O)cc3)(C3CC3)OC2=O)c(C(C)(C)C)cc1CO", "strain": "IIIB", "read by": "cytopathic effect / MTT", "value": "1.6 µM"}
{"structure": "C=CCOC(=O)CCCCC", "read by": "syncytia", "value": "68 µM"}
{"structure": "Cc1ccc2c(c1)COP(=O)(OCCOCn1cnc3c(=O)[nH]c(N)nc31)O2", "strain": "IIIB", "read by": "syncytia", "value": "17 µM"}
{"structure": "Nc1ncnc2c1ncn2CCOCP(=O)(O)O", "strain": "IIIB", "read by": "syncytia", "value": "7 µM"}
{"structure": "Cc1occc1C(=S)Nc1ccc(Cl)c(/C=N/OC(C)(C)C)c1", "strain": "IIIB", "mutations": "RT-E138K", "read by": "syncytia", "value": "0.1 µM"}
{"structure": "O=C(Nc1ccccc1-c1nn(CN2CCNCC2)c(=S)n(CN2CCNCC2)c1=O)C(F)(F)F", "strain": "RF", "read by": "cytopathic effect / XTT", "value": "11.3 µg/mL"}
{"structure": "O=C1N(Cc2ccccc2)c2cscc2S(=O)(=O)N1Cc1ccccc1", "strain": "IIIB", "read by": "syncytia", "value": "1.8 µM"}
{"structure": "CC(C)(C)OC(=O)[C@@H]1CCCN1C(=O)[C@@H](O)[C@H](Cc1ccccc1)NC(=O)[C@H](CC(N)=O)NC(=O)c1cnc2ccccc2n1", "strain": "IIIB", "read by": "antigen", "value": "0.4 µM"}
{"structure": "CCN1C(=O)N(Cc2ccccc2)S(=O)(=O)c2cscc21", "mutations": "RT-E138K", "read by": "syncytia", "value": "310.2 µM"}
{"structure": "Nc1ncnc2c1ncn2CC(CF)OCP(=O)(O)O", "strain": "IIIB", "read by": "syncytia", "value": "3 µM"}
{"structure": "CC(C)=CCOc1cc(NC(=S)c2ccsc2C)ccc1Cl", "strain": "IIIB", "read by": "syncytia", "value": "0.0018 ± 0.0004 µM"}
{"structure": "Cc1cn([C@H]2C[C@H](N=[N+]=[N-])[C@@H](COP(=O)(OCCC#N)O[C@H]3CC[C@@]4(C)C(=CC[C@@H]5[C@@H]4CC[C@]4(C)C([C@H](C)CCCC(C)C)CC[C@@H]54)C3)O2)c(=O)[nH]c1=O", "read by": "cytopathic effect / XTT", "value": "1.65 µM"}
{"structure": "Nc1ncnc2c1ncn2CCOCP(=O)(O)O", "strain": "IIIB", "read by": "syncytia", "value": "8.5 ± 2.1 µM"}
{"structure": "O=C(Nc1ccccc1-c1nn(CO)c(=S)n(CO)c1=O)C(F)(F)F", "strain": "RF", "read by": "cytopathic effect / XTT", "value": ">62.5 µg/mL"}
{"structure": "COc1ccc2c(c1)N(C(=O)OC(C)C)[C@@H](CSC)C(=S)N2", "strain": "IIIB", "read by": "syncytia", "value": "0.001 µM"}
{"structure": "O=C(O)c1cc(Cc2ccc(O)c(C(=O)O)c2)ccc1O", "read by": "cytopathic effect", "value": ">200 µM"}
{"structure": "N#CCN1C(=O)N(Cc2ccccc2)S(=O)(=O)c2cscc21", "strain": "IIIB", "read by": "syncytia", "value": "1.2 µM"}
{"structure": "Nc1nc2c(ncn2COCCOP2(=O)OCc3ccccc3O2)c(=O)[nH]1", "strain": "IIIB", "read by": "syncytia", "value": "22 µM"}
{"structure": "Cc1cc(SC2=C(O)CC(CCc3ccc(O)cc3)(C(C)C)OC2=O)c(C(C)(C)C)cc1CO", "strain": "IIIB", "read by": "cytopathic effect / MTT", "value": "0.57 µM"}
{"structure": "Cc1cn([C@@H]2O[C@H](CO[Si](C)(C)C(C)(C)C)[C@]3(C=CS(=O)(=O)O3)[C@H]2O[Si](C)(C)C(C)(C)C)c(=O)n(C)c1=O", "value": "0.15 µM"}
{"structure": "Cc1cn([C@H]2C[C@H](N=[N+]=[N-])[C@@H](COP(=O)(OCCC#N)OC3CCC4(C)C(=CCC5C4CCC4(C)C(C(C)CCCC(C)C)CCC54)C3)O2)c(=O)[nH]c1=O", "read by": "cytopathic effect / XTT", "value": "5.67 µM"}
{"structure": "Fc1cccc(F)c1[C@@H]1SCc2nc3ccccc3n21", "strain": "IIIB", "mutations": "RT-K103N", "read by": "cytopathic effect / XTT", "value": "12.1 µM"}
{"structure": "Cc1cc(SC2=C(O)CC(CCc3ccc(O)cc3)(C3CCCC3)OC2=O)c(C(C)(C)C)cc1OCCO", "strain": "IIIB", "read by": "cytopathic effect / MTT", "value": "1.2 µM"}
{"structure": "CC[C@H]1C(=O)Nc2ccc(F)cc2N1C(=O)OC(C)C", "strain": "NNRTI-resistant", "mutations": "RT-V106A", "read by": "cytopathic effect", "value": "0.075 µM"}
{"structure": "COc1ncnc2c1ncn2[C@@H]1O[C@H](CO[Si](C)(C)C(C)(C)C)C2(OS(=O)(=O)C=C2N)[C@H]1O[Si](C)(C)C(C)(C)C", "strain": "IIIB", "read by": "syncytia", "value": "0.07 µg/mL"}
{"structure": "CC(C)(C)NC(=O)[C@@H]1C[C@H](Cl)CN1C(=O)[C@@H](O)[C@H](Cc1ccccc1)NC(=O)[C@H](CC(N)=O)NC(=O)OCc1ccccc1", "strain": "IIIB", "read by": "p24", "value": "<0.5 µM"}
{"structure": "Nc1nc(N)c(Cl)c(OCCOCP(=O)(O)O)n1", "strain": "IIIB", "read by": "syncytia", "value": "0.93 µg/mL"}
{"structure": "Cc1cn([C@H]2C[C@H](N=[N+]=[N-])[C@@H](CO)O2)c(=O)[nH]c1=O", "strain": "IIIB", "read by": "syncytia", "value": "0.003 ± 0.001 µM"}
{"structure": "COC(=O)[C@H](C)NP(=O)(OC[C@@H]1O[C@H](n2ccc(N)nc2=O)CS1)Oc1ccccc1", "strain": "IIIB", "read by": "syncytia", "value": "2.5 µM"}
{"structure": "CC(C)(C)OC(=O)[C@@H]1CCCN1C(=O)[C@@H](O)[C@H](Cc1ccccc1)NC(=O)[C@H](CC(N)=O)NC(=O)OCc1ccccc1", "strain": "IIIB", "read by": "antigen", "value": "1.3 µM"}
{"structure": "CCn1c(=O)c(C)cn([C@@H]2O[C@H](CO[Si](C)(C)C(C)(C)C)C3(OS(=O)(=O)C=C3N)[C@H]2O[Si](C)(C)C(C)(C)C)c1=O", "strain": "IIIB", "read by": "syncytia", "value": "0.061 ± 0.057 µg/mL"}
{"structure": "C=CCSSCC=C", "read by": "syncytia", "value": "34 µM"}
{"structure": "CCOCn1c(Sc2ccccc2)c(CC)c(=O)[nH]c1=S", "strain": "IIIB", "value": "0.004 µg/mL"}
{"structure": "O=C(Nc1ccccc1-c1n[nH]c(=S)[nH]c1=O)C(F)(F)F", "strain": "RF", "read by": "cytopathic effect / XTT", "value": "134 µg/mL"}
{"structure": "COC(=O)[C@H](C)NP(=O)(OC[C@@H]1C=C[C@H](n2cc(C)c(=O)[nH]c2=O)O1)Oc1ccccc1", "strain": "IIIB", "read by": "syncytia", "value": "0.13 µM"}
{"structure": "Cc1cc(SC2=C(O)CC(CCc3ccc(N)cc3)(C(C)C)OC2=O)c(C(C)(C)C)cc1CO", "strain": "IIIB", "read by": "cytopathic effect / MTT", "value": "0.5 µM"}
{"structure": "CC(C)(C)NC(=O)[C@@H]1CCCN1C(=O)[C@@H](O)[C@H](Cc1ccccc1)NC(=O)[C@H](CC(N)=O)NC(=O)c1cc2ccccc2[nH]1", "strain": "IIIB", "read by": "antigen", "value": "0.8 µM"}
{"structure": "CCN1C(=O)N(Cc2cccc(Cl)c2)S(=O)(=O)c2cscc21", "mutations": "RT-Y188H", "read by": "syncytia", "value": "≥11.2 µM"}
{"structure": "CCc1cc(NCc2nc3c(C)ccc(C)c3o2)c(=O)[nH]c1C", "strain": "A018A/H112-2", "read by": "p24", "setting": "clinical isolate", "value": "<0.025 µM"}
{"structure": "CC(C)=CCN1Cc2cc(Cl)cc3[nH]c(=S)n(c23)C[C@@H]1C", "strain": "IIIB", "mutations": "RT-Y181C", "read by": "cytopathic effect", "value": "2 µg/mL"}
{"structure": "Cc1cn([C@H]2C[C@H](F)[C@@H]([C@@H](C)O)O2)c(=O)[nH]c1=O", "strain": "IIIB", "read by": "syncytia", "value": "8.5 ± 2.1 µg/mL"}
{"structure": "Nc1ncnc2c1ncn2CCOCP(=O)(O)O", "strain": "Clinical isolate DE434.4", "mutations": "RT-K65R S68G T69I V75T Q151M", "read by": "syncytia", "value": "70 µg/mL"}
{"structure": "Cc1cn([C@@H]2O[C@H](CO[Si](C)(C)C(C)(C)C)C3(OS(=O)(=O)C=C3N)[C@H]2O[Si](C)(C)C(C)(C)C)c(=O)n(C)c1=O", "strain": "NNRTI-resistant", "mutations": "RT-K103N", "read by": "cytopathic effect", "value": "0.86 µM"}
{"structure": "Cc1cccc2c1OP(=O)(OCCOCn1cnc3c(=O)[nH]c(N)nc31)OC2", "strain": "IIIB", "read by": "syncytia", "value": ">50 µM"}
{"structure": "CC(C)(C)NC(=O)[C@@H]1C[C@H](Cl)CN1C(=O)[C@@H](O)[C@H](Cc1ccccc1)NC(=O)[C@H](CC(N)=O)NC(=O)c1cnc2ccccc2n1", "strain": "IIIB", "read by": "p24", "value": "<0.12 µM"}
{"structure": "CC(C)=CCOc1cc(NC(=S)c2ccoc2C)ccc1Cl", "strain": "IIIB", "mutations": "RT-V179D", "read by": "cytopathic effect", "value": "0.006 µg/mL"}
{"structure": "Nc1nc(NC2CC2)c2ncn([C@H]3C=C[C@@H](CO)C3)c2n1", "strain": "IIIB", "read by": "syncytia", "value": "5 µM"}

4 of the rows above, restated:

structure,strain,mutations,read by,setting,value
Cn1cnc2c(ncn2[C@@H]2O[C@H](CO[Si](C)(C)C(C)(C)C)C3(OS(=O)(=O)C=C3N)[C@H]2O[Si](C)(C)C(C)(C)C)c1=O,IIIB,-,syncytia,-,0.06 µg/mL
Cc1cccc2c1OP(=O)(OCCOCn1cnc3c(=O)[nH]c(N)nc31)OC2,IIIB,-,syncytia,-,>50 µM
O=C1N(Cc2ccccc2)c2cscc2S(=O)(=O)N1Cc1ccccc1,IIIB,-,syncytia,-,1.8 µM
Cc1cc(SC2=C(O)CC(CCc3ccc(O)cc3)(C3CCCC3)OC2=O)c(C(C)(C)C)cc1OCCO,IIIB,-,cytopathic effect / MTT,-,1.2 µM

Lines come from different laboratories, so protocols vary. An empty or dashed field is not shown.